Measured values from several laboratories, pooled; numbers as filed in NIAID ChemDB.

Common to all: toxicity to cultured cells; cell line: VERO; endpoint: CC50

CCn: concentration that lowers growth or viability of the cells by n%. Lines come from different laboratories, so protocols vary.

SMILES	read by	result
FC(F)(F)c1ccccc1Sc1cc2ccccc2[n+](CCCCCC2CCCCC2)c1	neutral red	>10 µg/mL
Cc1ccc(N2C(=O)CCC2(C#N)c2ccc(OCc3ccccc3)cc2)cc1	absorbance	23.9 µM
O=C(Nc1ccccc1)c1c(-c2ccccc2)[n+](=O)c2cc(Cl)c(Cl)cc2n1[O-]	ATP / luminescence	5.541 µg/mL
Cc1cc(C)cc(N2C(=O)CCC2(CN)c2c(Cl)cccc2Cl)c1	absorbance	>100 µM
CCc1nc2ccc(C)cc2n1CCCCNc1cccc(Cl)c1	luminescence	16 µM
CCCCCS(=O)(=O)Nc1ccc2[nH]c(Br)c(C)c2c1	resazurin	69 µM
Cc1c(C(=O)NCc2ccc3c(c2)OCO3)[n+](=O)c2cc(Cl)ccc2n1[O-]	ATP / luminescence	>40 µg/mL
O=c1[nH]c(=O)n([C@@H]2O[C@H](CO)[C@@H](O)[C@@H]2O)cc1C#CC#Cc1ccc2c3cccc4cccc(c5cccc1c52)c43	MTT	>20 µM
CCc1nc2ccc(C)cc2n1CCCCSc1ccc(OC)cc1	luminescence	20 µM
COC1=Cc2c(cc(OC3=C4C(=CC(=O)C4(C)C)c4cc(OC)c(C)cc4C3=O)c3cc(C)c(OC)cc23)C(C)(C)C1=O	absorbance	>10 µM
O=C(O)c1c2n(c3cc(N4CCC(n5c(=O)[nH]c6cc(Cl)ccc65)CC4)c(F)cc3c1=O)CS2	MTT	>125 µM
CCc1nc2ccc(C)cc2n1CCCNc1ccccc1	luminescence	>50 µM
Nc1nccc2nn([C@@H]3O[C@H](CO)[C@@H](O)[C@H]3O)nc12	trypan blue	>398 µM
Cc1ccc(N2C(=O)CCC2(CN)c2ccccc2)cc1	absorbance	>100 µM
Fc1cccc(Sc2cc3ccccc3[n+](CCCCCc3ccccc3)c2)c1	neutral red	>10 µg/mL
C=C1CCC2C(C)(CO)C(O)CCC2(C)C1/C=C/C1=CCOC1=O	crystal violet	243.4 µM
CCc1nc2ccc(C)cc2n1CCCCSc1ccc(Cl)cc1	luminescence	16 µM
N#CC1(c2ccc(OCc3ccccc3)cc2)CCC(=O)N1Cc1ccccc1	absorbance	3 µM
O=c1[nH]c(=O)n([C@@H]2O[C@H](CO)[C@@H](O)[C@H]2O)cc1-n1cc(-c2ccc3c4cccc5cccc(c6cccc2c63)c54)nn1	MTT	>20 µM
CCCCS(=O)(=O)Nc1ccc2[nH]c(C(=O)NCc3ccc(F)cc3)c(C)c2c1	resazurin	>120 µM
c1ccc(C(CNCCNCC23CC4CC(CC(C4)C2)C3)c2ccccc2)cc1	MTS	32 µM
CCc1nc2ccccc2n1CCSc1nnc(-c2ccc(Cl)cc2)o1	luminescence	35 µM
O=C1NC2OC(c3cc4cccc5c6cccc7cccc(c(c3)c45)c76)=CC2=CN1[C@H]1C[C@H](O)[C@@H](CO)O1	MTT	>20 µM
O=[N+]([O-])c1ccc(OCc2nn3c(Cc4ccc5ccccc5c4)nnc3s2)cc1	resazurin	79.26 µM
Nc1ncnc2c1nnn2[C@@H]1O[C@H](CO)[C@@H](O)[C@H]1O	trypan blue	4.5 µM
CC(C)Oc1ccc(C2(C#N)CCC(=O)N2c2ccccc2)cc1	absorbance	47.6 µM
Cc1c(C(=O)NCc2ccc(Br)cc2)[n+](=O)c2cc(Cl)ccc2n1[O-]	ATP / luminescence	>40 µg/mL
C=C1CCC2C(C)(COC(=O)CCCCCCCCCCCCCCC)C(OC(=O)CCCCCCCCCCCCCCC)CCC2(C)C1C/C=C1/CCOC1=O	crystal violet	73.9 µM
Cc1c(C(=O)NCc2ccc(Br)cc2)[n+](=O)c2cc(Cl)c(Cl)cc2n1[O-]	ATP / luminescence	>40 µg/mL
COC(=O)c1ccccc1NC(=O)C(=O)/C=C(\O)c1ccccc1NC1=CC(=O)C(=O)c2ccccc21	neutral red	>50 µM
COc1ccc2nc(Cl)c(/C=C/C(=O)c3ccc4ccccc4c3)cc2c1	MTS	52 µM
C=CCn1c(=N)n(CC(=O)c2cc(C(C)(C)C)c(O)c(C(C)(C)C)c2)c2ccccc21	neutral red	>50 µM
C=C1CCC2C3(C)COC(C)(C)OC3CCC2(C)C1C/C=C1\C(=O)OCC1OC(C)=O	crystal violet	5.9 µM
CCc1nc2ccc(C)cc2n1CCCNc1ccc(C)cc1C	luminescence	14 µM
[C-]#[N+][C@@]12[C@@](C)(C=C)[C@H](Cl)C[C@@H]3C(C)(C)c4cccc5[nH]c(c(c45)[C@]31O)C(C)(C)[C@]21CO1	MTS	>128 µM
COc1ccc(OCc2nn3c(-c4ccc(Br)cc4)nnc3s2)cc1	resazurin	64.22 µM
c1ccc(C(CCNCCN[C@H]2C[C@@H]3CC[C@H]2C3)c2ccccc2)cc1	MTS	25 µM
O=c1[nH]c(=O)n([C@@H]2O[C@H](CO)[C@@H](O)[C@@H]2O)cc1C#Cc1cc2cccc3c4cccc5cccc(c(c1)c23)c54	MTT	>20 µM
O=[N+]([O-])c1ccc(OCc2nn3c(-c4ccc(Br)cc4)nnc3s2)cc1	resazurin	243.9 µM
O=c1c(-c2ccccc2)c(O)ccn1[C@@H]1O[C@H](CO)[C@@H](O)[C@H]1O	neutral red	>400 µM
O=C(CSC1=N/C(=C/c2ccccc2)C(=O)N1c1ccccc1)Nc1cccc(C(F)(F)F)c1	neutral red	>50 µM
COc1c(N2CCNC(C)C2)c(F)cc2c(=O)c(C(=O)O)cn(C3CC3)c12	MTT	>155.3 µM
FC(F)(F)c1ccc(Sc2cc3ccccc3[n+](CCCCCC3CCCCC3)c2)cc1	neutral red	>10 µg/mL
CCc1nc2ccccc2n1CCCCNc1ccc(-c2ccccn2)cc1	luminescence	22 µM
Cc1c(C(=O)NCc2ccc(C(F)(F)F)cc2)[n+](=O)c2cc(C(F)(F)F)ccc2n1[O-]	ATP / luminescence	>40 µg/mL
Cc1ccc(N2C(=O)CCC2(C#N)c2ccccc2OCc2ccccc2)cc1	absorbance	77.9 µM
O=c1[nH]c(=O)n([C@H]2C[C@H](O)[C@@H](CO)O2)cc1-n1cc(-c2ccccc2)nn1	MTT	>20 µM
O=C(O)c1c2n(c3cc(N4CCN(C(=O)c5ccco5)CC4)c(F)cc3c1=O)CS2	MTT	>146 µM
Cc1c(C(=O)NCc2ccc(C(F)(F)F)cc2)[n+](=O)c2cc(Cl)c(Cl)cc2n1[O-]	ATP / luminescence	>40 µg/mL
Cc1ccc2nc(Cl)c(/C=C/C(=O)c3ccc[nH]3)cc2c1	MTS	11.6 µM
C#Cc1cnc(OC)nc1OC	trypan blue	>100 µM
Cc1ccc2nc(Cl)c(/C=C/C(=O)c3cc(C)sc3C)cc2c1	MTS	2.4 µM
CCCCS(=O)(=O)Nc1ccc2[nH]c(C(=O)NC3COC3)c(C)c2c1	resazurin	>140 µM
COc1ccc2c(c1)[C@@H]1C[C@]1(C(=O)N1[C@@H]3CC[C@H]1CN(C)C3)Cn1c-2c(C2CCCCC2)c2ccc(C(=O)NS(=O)(=O)N(C)C)cc21	resazurin	32 µM
C#Cc1cnc(OC(=O)c2ccccc2)nc1OC(=O)c1ccccc1	trypan blue	>100 µM
O=c1[nH]c(=O)n([C@@H]2O[C@@]3(CO)CO[C@H]2[C@@H]3O)cc1C#Cc1ccc2c3cccc4cccc(c5cccc1c52)c43	MTT	>20 µM
Cc1cc(Cl)ccc1OCc1nn2c(-c3ccc(Br)cc3)nnc2s1	resazurin	32.52 µM
Nc1nccc2nn([C@H]3C[C@H](O)[C@@H](CO)O3)nc12	trypan blue	>396 µM
COc1ccc(-c2c(O)ccn([C@@H]3O[C@H](COC(C)=O)[C@@H](OC(C)=O)[C@H]3OC(C)=O)c2=O)cc1OC	neutral red	>400 µM
COc1ncc(I)c(OC)n1	trypan blue	>100 µM
O=c1[nH]c(=O)n([C@H]2C[C@H](O)[C@@H](CO)O2)cc1C#CC#Cc1cc2cccc3ccc4cccc1c4c32	MTT	>20 µM
O=C(O)c1c2n(c3cc(N4CCC(O)(c5ccc(Cl)cc5)CC4)c(F)cc3c1=O)CS2	MTT	135.6 µM
Cc1ccc2nc(Cl)c(/C=C/C(=O)c3sccc3C)cc2c1	MTS	66.5 µM
N#Cc1cccc(Sc2cc3ccccc3[n+](CCCCCC3CCCCC3)c2)c1	neutral red	>10 µg/mL
OC[C@H]1O[C@@H](n2nnc3ccnc(Cl)c32)[C@H](O)[C@@H]1O	trypan blue	>370 µM
CCCCS(=O)(=O)Nc1ccc2[nH]c(C(=O)N(C)C)c(C)c2c1	resazurin	>150 µM
OC[C@H]1O[C@@H](n2nc3ccnc(Cl)c3n2)[C@H](O)[C@@H]1O	trypan blue	>398 µM
CC(C)=CCC/C(C)=C/CNCCNC(c1ccccc1)c1ccccc1	MTS	21 µM
CCCCS(=O)(=O)Nc1ccc2[nH]c(C(=O)N3CCCCC3)c(C)c2c1	resazurin	>130 µM
Nc1nccc2nnn([C@@H]3O[C@H](CO)[C@@H](O)[C@H]3O)c12	trypan blue	>398 µM
O=C(O)c1c2n(c3cc(N4CCN(C(=O)c5ccco5)CC4)c([N+](=O)[O-])cc3c1=O)CS2	MTT	137 µM
CCc1nc2ccc(C)cc2n1CCCSc1ccc(OC)cc1	luminescence	33 µM
COc1ccc2nc(Cl)c(/C=C/C(=O)c3ccc(Cl)s3)cc2c1	MTS	11.6 µM
Oc1cccc(Sc2cc3ccccc3[n+](CCCCCC3CCCCC3)c2)c1	neutral red	>10 µg/mL
CO[C@H]1[C@H](O)[C@@H](CO)O[C@H]1n1cc(C#Cc2ccc3c4cccc5cccc(c6cccc2c63)c54)c(=O)[nH]c1=O	MTT	>20 µM
C#Cc1c[nH]c(=O)[nH]c1=O	trypan blue	>100 µM
N#CC(NCc1ccc(C=O)cc1)c1ccccc1	absorbance	69.6 µM

Repeating the final 5 entries:

{"SMILES": "COc1ccc2nc(Cl)c(/C=C/C(=O)c3ccc(Cl)s3)cc2c1", "read by": "MTS", "result": "11.6 µM"}
{"SMILES": "Oc1cccc(Sc2cc3ccccc3[n+](CCCCCC3CCCCC3)c2)c1", "read by": "neutral red", "result": ">10 µg/mL"}
{"SMILES": "CO[C@H]1[C@H](O)[C@@H](CO)O[C@H]1n1cc(C#Cc2ccc3c4cccc5cccc(c6cccc2c63)c54)c(=O)[nH]c1=O", "read by": "MTT", "result": ">20 µM"}
{"SMILES": "C#Cc1c[nH]c(=O)[nH]c1=O", "read by": "trypan blue", "result": ">100 µM"}
{"SMILES": "N#CC(NCc1ccc(C=O)cc1)c1ccccc1", "read by": "absorbance", "result": "69.6 µM"}